Reference: PMC6010014

Columns and labels:
[1] = biological target: T1, HIV-1 wt RT (HIV-1 Reverse Transcriptase; RNase H and RDDP functions) (HIV-1 M:B_HXB2R, UniProt P04585); assay: RNase H, fluorescein/Dabcyl RNA/DNA hybrid cleavage; settings: RNase H function, 250 nM RNA/DNA hybrid, 6 mM MgCl2, 80 mM KCl, 1 mM DTT, pH 7.8, 37 °C
From the text: RNase H, fluorescein/Dabcyl RNA/DNA hybrid cleavage on HIV-1 wt RT (HIV-1 Reverse Transcriptase; RNase H and RDDP functions)

[2] = biological target: T1, HIV-1 wt RT (HIV-1 Reverse Transcriptase; RNase H and RDDP functions); assay: RNA-dependent DNA polymerase, picogreen fluorescence; settings: RDDP function, 2.5 µM poly(A)-oligo(dT), 100 µM dTTP, 8 mM MgCl2, 60 mM KCl, 13 mM DTT, pH 8.1, 37 °C
From the text: RNA-dependent DNA polymerase, picogreen fluorescence on HIV-1 wt RT (HIV-1 Reverse Transcriptase; RNase H and RDDP functions)

[3] = read-out: [drawing 1] / RNase H - IC50
[4] = read-out: [drawing 1] / RDDP - IC50

SMILES	IC50 [1, 3]	IC50 [2, 4]	IC50 ([1]; read-out: RNase H - IC50)	IC50 ([2]; read-out: RDDP - IC50)
Cn1c(-c2ccc(F)cc2F)csc1=NN=C1C(=O)Nc2ccccc21	12.5 µM	30 µM	–	–
Cc1ccc(-c2csc(=NN=C3C(=O)Nc4ccccc43)n2C)cc1	15.9 µM	29 µM	–	–
Cn1c(-c2ccc(Cl)c(Cl)c2)csc1=NN=C1C(=O)Nc2ccccc21	24 µM	50 µM	–	–
Cn1c(-c2ccc(-c3ccccc3)cc2)csc1=NN=C1C(=O)Nc2ccc(Cl)cc21	–	–	10 µM	9.5 µM
Cn1c(-c2ccccc2)csc1=NN=C1C(=O)Nc2ccc(Cl)cc21	–	–	25 µM	100 µM
Cn1c(-c2ccc(C#N)cc2)csc1=NN=C1C(=O)Nc2ccc(Cl)cc21	–	–	27 µM	28 µM
Cc1ccc(-c2csc(=NN=C3C(=O)Nc4ccc(Cl)cc43)n2C)cc1	–	–	19 µM	85 µM
Cn1c(-c2ccc(-c3ccccc3)cc2)csc1=NN=C1C(=O)Nc2ccccc21	25 µM	35 µM	–	–
Cn1c(-c2ccc(Cl)cc2)csc1=NN=C1C(=O)Nc2ccccc21	17.5 µM	24 µM	–	–
Cn1c(-c2ccc([N+](=O)[O-])cc2)csc1=NN=C1C(=O)Nc2ccc(Cl)cc21	–	–	21 µM	26 µM
Cn1c(-c2cccc([N+](=O)[O-])c2)csc1=NN=C1C(=O)Nc2ccccc21	24 µM	69 µM	–	–
Cn1c(-c2ccc(Br)cc2)csc1=NN=C1C(=O)Nc2ccccc21	29 µM	100 µM	–	–
Cn1c(-c2ccccc2)csc1=NN=C1C(=O)Nc2ccccc21	19.9 µM	15 µM	–	–
Cn1c(-c2ccc(F)cc2)csc1=NN=C1C(=O)Nc2ccc(Cl)cc21	–	–	18.9 µM	31 µM
Cn1c(-c2ccc(Cl)cc2)csc1=NN=C1C(=O)Nc2ccc(Cl)cc21	–	–	–	39 µM
Cn1c(-c2ccc(F)cc2)csc1=NN=C1C(=O)Nc2ccccc21	28 µM	30 µM	–	–
Cn1c(-c2ccc(C#N)cc2)csc1=NN=C1C(=O)Nc2ccccc21	21 µM	27 µM	–	–
Cn1c(-c2ccc([N+](=O)[O-])cc2)csc1=NN=C1C(=O)Nc2ccccc21	17.2 µM	15.6 µM	–	–
Cn1c(-c2ccc(F)cc2F)csc1=NN=C1C(=O)Nc2ccc(Cl)cc21	–	–	21 µM	54 µM
COc1ccc(-c2csc(=NN=C3C(=O)Nc4ccccc43)n2C)cc1	27 µM	17.9 µM	–	–
Cn1c(-c2ccc(Cl)c(Cl)c2)csc1=NN=C1C(=O)Nc2ccc(Cl)cc21	–	–	16.7 µM	98 µM
Cn1c(-c2ccc(Cl)cc2Cl)csc1=NN=C1C(=O)Nc2ccccc21	15 µM	19.6 µM	–	–
Cn1c(-c2cccc([N+](=O)[O-])c2)csc1=NN=C1C(=O)Nc2ccc(Cl)cc21	–	–	17.5 µM	60 µM
Cn1c(-c2ccc(Br)cc2)csc1=NN=C1C(=O)Nc2ccc(Cl)cc21	–	–	23 µM	34 µM
COc1ccc(-c2csc(=NN=C3C(=O)Nc4ccc(Cl)cc43)n2C)cc1	–	–	15.1 µM	28 µM
